Assay results taken from PMC3877901, “Screening Mangrove Endophytic Fungi for Antimalarial Natural Products” (Marine Drugs, 2013).

Tested on: Plasmodium falciparum (3D7, a drug sensitive strain)
Experiment: Malaria assay: anti-malarial activity against Plasmodium falciparum (3D7)
Type: cell-based
Conditions: read-out: IC50 (nM) 3D7

CC1=CC(=O)OCC23CCC(C)=CC2OC2CC(OC(=O)C=CC=CC(C(C)O)OCC1)C3(C)C21CO1 (stereo not shown)
IC50: < 20 nM
